The values that follow come from patent US6689782B2, “Fungal efflux pump inhibitors” (priority 2001, dated 2004).

Assay [1] deals with Candida albicans YEM15 (over-expressing the CDR1 and CDR2 pumps). Kind of assay: checkerboard assay / broth microdilution, potentiation of fluconazole vs. C. albicans. The conditions noted are these: 48 h. In general terms: Dilution methods test growth across graded concentrations, often in twofold steps.
In assay [2] the test system is C. glabrata YEM19 (over-expressing the CgCDR1 and CgCDR2 pumps). In words: checkerboard assay / broth microdilution, potentiation of fluconazole vs. C. glabrata. The conditions noted are these: Nakaseomyces glabratus, 48 h.

Consider `COC(=O)N[C@@H](C)C(=O)N1CCN(n2c(C(C)N(C(=O)Nc3ccc(F)cc3)c3ccc(OC)cc3OC)nc3ccc(Cl)cc3c2=O)CC1` (mixture of isomers) [Compound 307], for which the MIC in assay [1] and in assay [2] was above 32 µg/mL each time.

For the molecule `COc1ccc(N(C(=O)Nc2ccc(F)cc2)C(C)c2nc3ccccc3c(=O)n2N2CCN(C(=O)CCNC(=O)OC(C)C)CC2)c(OC)c1` (racemic) [Compound 320], the MIC in assay [1] and in assay [2] was above 32 µg/mL throughout.

With `CC[C@H](NC(=O)OC)C(=O)N1CCN(n2c(C(C)N(C(=O)Nc3ccc(F)cc3)c3ccc(OC)cc3OC)nc3ccccc3c2=O)CC1` (mixture of isomers) [Compound 291], the minimum inhibitory concentration (MIC) in assay [1] and in assay [2] was above 32 µg/mL each time.

Take `COC(=O)N[C@H](C(=O)N1CCN(n2c(C(C)N(C(=O)Nc3ccc(F)cc3)c3ccc(OC)cc3OC)nc3ccccc3c2=O)CC1)C(C)C` (mixture of isomers) [Compound 295]: the MIC in assay [1] and in assay [2] was above 32 µg/mL throughout.

For `COc1ccc(N(C(=O)Nc2ccc(F)cc2)C(C)c2nc3ccccc3c(=O)n2N2CCN(C(=O)C(C)(C)NC(=O)OC(C)C)CC2)c(OC)c1` (racemic) [Compound 332], the MIC in assay [1] and in assay [2] was above 32 µg/mL in each case.

For the molecule `COc1ccc(N(C(=O)Nc2ccc(F)cc2)C(C)c2nc3ccccc3c(=O)n2N2CCN(C(=O)CN(C)C(=O)OC(C)C)CC2)c(OC)c1` (racemic) [Compound 323], the MIC in assay [1] and in assay [2] was above 32 µg/mL each time.

Take `COc1ccc(N(C(=O)Nc2ccc(F)cc2)C(C)c2nc3ccccc3c(=O)n2N2CCN(C(=O)Cc3csc(N)n3)CC2)c(OC)c1` (racemic) [Compound 318]: the MIC in assay [1] and in assay [2] was above 32 µg/mL throughout.

Turning to `COc1ccc(N(C(=O)Nc2ccc(F)cc2)C(C)c2nc3ccc(Cl)cc3c(=O)n2N2CCN(C(=O)C(C)(C)N)CC2)c(OC)c1` (racemic) [Compound 327], the MIC in assay [1] and in assay [2] was above 32 µg/mL each time.

As to `COC(=O)NC(C)(C)C(=O)N1CCN(n2c(C(C)N(C(=O)Nc3ccc(F)cc3)c3ccc(OC)cc3OC)nc3cc(F)ccc3c2=O)CC1` (racemic) [Compound 336], the MIC in assay [1] and in assay [2] was above 32 µg/mL each time.

Regarding `COc1ccc(N(C(=O)Nc2ccc(F)cc2)C(C)c2nc3ccccc3c(=O)n2N2CCN(C(=O)C3COCCN3)CC2)c(OC)c1` (racemic) [Compound 253], the MIC in assay [1] and in assay [2] was above 32 µg/mL in each case.

Consider `COc1ccc(N(C(=O)Nc2ccc(F)cc2)C(C)c2nc3cc(Cl)ccc3c(=O)n2N2CCN(C(=O)C(C)(C)N)CC2)c(OC)c1` (racemic) [Compound 328], for which the MIC in assay [1] and in assay [2] was above 32 µg/mL each time.

Consider `COc1ccc(N(C(=O)Nc2ccc(F)cc2)C(C)c2nc3cc(F)c(F)cc3c(=O)n2N2CCN(C(=O)[C@H](C)NC(=O)OC(C)(C)C)CC2)c(OC)c1` (mixture of isomers) [Compound 311], for which the MIC in assay [1] and in assay [2] was above 32 µg/mL each time.

Turning to `COC(=O)NC(C)(C)C(=O)N1CCN(n2c(C(C)N(C(=O)Nc3ccc(F)cc3)c3ccc(OC)cc3OC)nc3cc(Cl)ccc3c2=O)CC1` (racemic) [Compound 335], the MIC in assay [1] and in assay [2] was above 32 µg/mL each time.

As to `COC(=O)NC(C)(C)C(=O)N1CCN(n2c(C(C)N(C(=O)Nc3ccc(F)cc3)c3ccc(OC)cc3OC)nc3ccc(Cl)cc3c2=O)CC1` (racemic) [Compound 334], the MIC in assay [1] and in assay [2] was above 32 µg/mL each time.

In the case of `COc1ccc(N(C(=O)Nc2ccc(F)cc2)C(C)c2nc3ccccc3c(=O)n2N2CCN(C(=O)C(C)N(C)C)CC2)c(OC)c1` (racemic) [Compound 313], the MIC in assay [1] and in assay [2] was above 32 µg/mL throughout.

Turning to `COC(=O)N[C@H](C(=O)N1CCN(n2c(C(C)N(C(=O)Nc3ccc(F)cc3)c3ccc(OC)cc3OC)nc3cc(Cl)ccc3c2=O)CC1)[C@@H](C)O` (mixture of isomers) [Compound 266], the MIC in assay [1] and in assay [2] was above 32 µg/mL throughout.

As for `COC(=O)N(C)[C@@H](C)C(=O)N1CCN(n2c(C(C)N(C(=O)Nc3ccc(F)cc3)c3ccc(OC)cc3OC)nc3ccccc3c2=O)CC1` (mixture of isomers) [Compound 300], the MIC in assay [1] and in assay [2] was above 32 µg/mL in each case.

In the case of `COc1ccc(N(C(=O)Nc2ccc(F)cc2)C(C)c2nc3cc(Cl)ccc3c(=O)n2N2CCN(C(=O)[C@H]3NC(=O)O[C@@H]3C)CC2)c(OC)c1` (mixture of isomers) [Compound 256], the MIC in assay [1] and in assay [2] was above 32 µg/mL each time.

For `COc1ccc(N(C(=O)Nc2ccc(F)cc2)C(C)c2nc3ccc(Cl)cc3c(=O)n2N2CCN(C(=O)C[C@@H]3CCCN3)CC2)c(OC)c1` (mixture of isomers) [Compound 316], the MIC in assay [1] and in assay [2] was above 32 µg/mL each time.

Turning to `COc1ccc(N(C(=O)Nc2ccc(F)cc2)C(C)c2nc3ccccc3c(=O)n2N2CCN(C(=O)[C@H](C)N(C)C(=O)OC(C)(C)C)CC2)c(OC)c1` (mixture of isomers) [Compound 301], the MIC in assay [1] and in assay [2] was above 32 µg/mL throughout.

Take `CCOC(=O)NCCC(=O)N1CCN(n2c(C(C)N(C(=O)Nc3ccc(F)cc3)c3ccc(OC)cc3OC)nc3ccccc3c2=O)CC1` (racemic) [Compound 319]: the MIC in assay [1] and in assay [2] was above 32 µg/mL in each case.

Turning to `COc1ccc(N(C(=O)Nc2ccc(F)cc2)C(C)c2nc3ccc(Cl)cc3c(=O)n2N2CCN(C(=O)[C@H](C)N)CC2)c(OC)c1` (mixture of isomers) [Compound 303], the MIC in assay [1] and in assay [2] was above 32 µg/mL in each case.

Take `CCOC(=O)N[C@H](C(=O)N1CCN(n2c(C(C)N(C(=O)Nc3ccc(F)cc3)c3ccc(OC)cc3OC)nc3cc(Cl)ccc3c2=O)CC1)[C@@H](C)O` (mixture of isomers) [Compound 264]: the MIC in assay [1] and in assay [2] was above 32 µg/mL in each case.

Consider `CC[C@H](N)C(=O)N1CCN(n2c(C(C)N(C(=O)Nc3ccc(F)cc3)c3ccc(OC)cc3OC)nc3cc(Cl)ccc3c2=O)CC1` (mixture of isomers) [Compound 282], for which the MIC in assay [1] and in assay [2] was above 32 µg/mL throughout.

With `COc1ccc(N(C(=O)Nc2ccc(F)cc2)C(C)c2nc3cc(F)c(F)cc3c(=O)n2N2CCN(C(=O)C[C@@H]3CCCN3)CC2)c(OC)c1` (mixture of isomers) [Compound 315], the MIC in assay [1] and in assay [2] was above 32 µg/mL throughout.

As for `COc1ccc(N(C(=O)Nc2ccc(F)cc2)C(C)c2nc3cc(F)ccc3c(=O)n2N2CCN(C(=O)C(C)(C)N)CC2)c(OC)c1` (racemic) [Compound 329], the MIC in assay [1] and in assay [2] was above 32 µg/mL each time.

As to `COC(=O)N[C@@H](C)C(=O)N1CCN(n2c([C@H](C)N(C(=O)Nc3ccc(F)cc3)c3ccc(OC)cc3OC)nc3cc(F)c(F)cc3c2=O)CC1` [Compound 363], the MIC in assay [1] is above 32 µg/mL.

For the molecule `COc1ccc(N(C(=O)Nc2ccc(F)cc2)C(C)c2nc3cc(F)c(F)cc3c(=O)n2N2CCN(C(=O)[C@H](C)N)CC2)c(OC)c1` (some centres unmarked) [Compound 302], in assay [1], the MIC is above 32 µg/mL.

Turning to `CC[C@H](NC(=O)OC)C(=O)N1CCN(n2c([C@H](C)N(C(=O)Nc3ccc(F)cc3)c3ccc(OC)cc3OC)nc3ccccc3c2=O)CC1` [Compound 361], the MIC in assay [1] was above 32 µg/mL.

Consider `COC(=O)N1CCC[C@H]1C(=O)N1CCN(n2c(C(C)N(C(=O)Nc3ccc(F)cc3)c3ccc(OC)cc3OC)nc3ccccc3c2=O)CC1` (some centres unmarked) [Compound 244], for which the MIC in assay [1] is above 32 µg/mL.

For orientation: MIC means the smallest concentration in the dilution series that meets the test's criterion for growth inhibition.
